# Positions that govern dimerization of the HIV-1 5' RNA

The measurements come from Ye et al. 2022 (doi:10.1038/s41594-022-00746-2).

RNA: 5' end of the HIV-1 NL4-3 genome, made in vitro. Positions 1-437 read:
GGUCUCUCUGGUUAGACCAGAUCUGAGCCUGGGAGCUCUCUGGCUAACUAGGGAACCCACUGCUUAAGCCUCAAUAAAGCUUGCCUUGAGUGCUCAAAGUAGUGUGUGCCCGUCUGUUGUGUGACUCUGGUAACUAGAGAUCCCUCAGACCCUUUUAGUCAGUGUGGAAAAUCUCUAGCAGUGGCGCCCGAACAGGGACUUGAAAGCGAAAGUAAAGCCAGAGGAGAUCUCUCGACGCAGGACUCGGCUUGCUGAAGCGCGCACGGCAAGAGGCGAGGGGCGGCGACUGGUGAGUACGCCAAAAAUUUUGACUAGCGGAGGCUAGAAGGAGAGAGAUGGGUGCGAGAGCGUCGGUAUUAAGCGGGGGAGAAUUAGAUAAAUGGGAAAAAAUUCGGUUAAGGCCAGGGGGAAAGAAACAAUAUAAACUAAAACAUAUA

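Randomly mutated transcripts starting with one, two or three G (1G, 2G, 3G), capped or uncapped, were folded for 30 min at 37 °C. High salt was 300 mM KCl and 5 mM MgCl2, low salt 40 mM KCl and 0.1 mM MgCl2; monomer and dimer were parted on a native gel. Kdimer compares mutation frequencies in monomer and dimer, corrected for sequencing errors.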

Scale: median log2 Kdimer over the changes at a position; positive = changes inhibit dimerization, negative = changes enhance it.
One numbering serves 1G, 2G and 3G.
A position is written with its base.

position | domain | 3G capped high-salt | 3G capped low-salt | 3G uncapped high-salt | 3G uncapped low-salt
C185 | PBS | -0.09 | -0.46 | 0.05 | -0.42
G186 | PBS | -0.25 | -0.45 | -0.04 | -0.37
C187 | PBS | 0.00 | -0.26 | -0.10 | -0.22
C188 | PBS | 0.29 | 0.67 | 0.19 | 0.79
C189 | PBS | 0.00 | 0.30 | 0.17 | 0.23
G190 | PBS | 0.23 | 0.40 | 0.15 | 0.39
A191 | PBS | -0.03 | -0.10 | 0.11 | -0.10
A192 | PBS | 0.03 | 0.26 | 0.03 | 0.34
C193 | PBS | -0.19 | -0.33 | -0.04 | -0.31
A194 | PBS | -0.02 | 0.92 | 0.21 | 0.88
G195 | PBS | 0.36 | 0.83 | 0.68 | 0.78
G196 | PBS | 0.29 | 0.87 | 0.57 | 0.85
G197 | PBS | 0.26 | 0.98 | 0.56 | 1.06
A198 | PBS | 0.26 | -0.48 | 0.04 | -0.45
C199 | PBS | -0.27 | -0.14 | 0.09 | -0.11
U200 | PBS | 0.10 | 0.07 | 0.06 | 0.12
U201 | PBS | 0.10 | -0.19 | 0.07 | 0.01
G202 | PBS | -0.21 | -0.22 | -0.13 | -0.24
A203 | PBS | 0.51 | 0.76 | 0.34 | 0.74
A204 | PBS | 0.25 | -0.03 | -0.04 | 0.18
A205 | PBS | 0.21 | -0.04 | 0.05 | -0.06
G206 | PBS | -1.07 | -1.10 | -0.48 | -0.88
C207 | PBS | -0.67 | -0.42 | -0.14 | -0.46
G208 | PBS | 0.10 | -0.16 | -0.04 | -0.21
A209 | PBS | 1.04 | 0.91 | 0.67 | 0.86
A210 | PBS | -0.02 | -0.09 | 0.14 | -0.11
A211 | PBS | -0.55 | -0.25 | -0.31 | -0.46
G212 | PBS | -0.98 | -0.90 | -0.64 | -0.77
U213 | PBS | -0.31 | -0.53 | -0.02 | -0.62
A214 | PBS | 0.11 | 0.04 | 0.06 | -0.03
A215 | PBS | -0.46 | -0.16 | -0.03 | -0.03
A216 | PBS | -0.49 | -0.53 | -0.16 | -0.57
G217 | antiPAS | -1.16 | -1.24 | -0.77 | -1.15
C218 | antiPAS | -0.73 | -0.71 | -0.44 | -0.75
C219 | antiPAS | 0.58 | 0.86 | 0.71 | 1.02
A220 | antiPAS | 0.19 | -0.07 | 0.25 | -0.11
G221 | antiPAS | -0.16 | 0.30 | 0.13 | 0.51
A222 | antiPAS | -0.22 | 0.79 | 0.21 | 0.78
G223 | antiPAS | 0.08 | 0.75 | 0.22 | 0.77
G224 | none | 0.02 | -0.16 | -0.16 | -0.46
A225 | none | -0.46 | -0.07 | -0.02 | -0.11
G226 | none | -0.44 | -0.60 | -0.40 | -0.64
A227 | CU | 1.22 | 1.39 | 0.70 | 1.44
U228 | CU | 0.04 | 0.09 | 0.06 | -0.03
C229 | CU | 0.37 | 0.45 | 0.46 | 0.47
U230 | CU | 0.53 | 0.77 | 0.30 | 0.83
C231 | CU | 0.04 | 0.22 | 0.37 | 0.07

Extract of 3 entries:

* C218 (domain antiPAS) = 3G capped high-salt -0.73; 3G capped low-salt -0.71; 3G uncapped high-salt -0.44; 3G uncapped low-salt -0.75
* G202 (domain PBS) = 3G capped high-salt -0.21; 3G capped low-salt -0.22; 3G uncapped high-salt -0.13; 3G uncapped low-salt -0.24
* A211 (domain PBS) = 3G capped high-salt -0.55; 3G capped low-salt -0.25; 3G uncapped high-salt -0.31; 3G uncapped low-salt -0.46